Measured values from several laboratories, pooled; numbers as filed in NIAID ChemDB.

All rows: enzyme or target tests; agent: HIV-1; protein: Reverse transcriptase; read-out: inhibition

An empty or dashed field is not shown.

{"SMILES": "CCN1c2ncccc2C(=O)Nc2c(C=O)cc(OC)nc21", "changes": "RT-Y181C", "tested at": "38 µM", "result": "1%"}
{"SMILES": "CC1=C(CC/C(C)=C/CC/C(C)=C/CC/C(=C/C(=O)O)C(=O)O)C(C)(C)CCC1", "tested at": "1000 µg/mL", "result": "0%"}
{"SMILES": "Nc1ncnc2c1ncn2C1OC(CO)CC1OP(=O)(O)OCC1CC(OP(=O)(O)OCC2OC(n3cnc4c(N)ncnc43)C(O)C2O)C(n2cnc3c(N)ncnc32)O1", "strain or isolate": "IIIB", "tested at": "10 µM", "result": "8%"}
{"SMILES": "CCCN1c2ccc(C)cc2N(C)C(=O)c2ccnnc21", "tested at": "33 µM", "result": "5%"}
{"SMILES": "CCN1c2ncccc2C(=O)Nc2c(C3OCCCO3)cc(-c3cccc(OC)c3)nc21", "strain or isolate": "WT", "tested at": "40 µM", "result": "1%"}
{"SMILES": "Nc1ncnc2c1ncn2[C@@H]1O[C@H](COP(=O)(O)O[C@@H]2[C@H](O)[C@@H](COP(=O)(O)O[C@@H]3[C@H](O)[C@@H](CO)O[C@H]3n3cnc4c(N)ncnc43)O[C@H]2n2cnc3c(N)ncnc32)[C@@H](O)[C@H]1O", "strain or isolate": "IIIB", "tested at": "10 µM", "result": "12%"}
{"SMILES": "C=C1CC[C@@H](OC(=O)CCC(=O)OC2CC(COP(=O)(O)OC3CC(COP(=O)(O)OC4CC(CO)OC4n4cnc5c(N)ncnc54)OC3n3cnc4c(N)ncnc43)OC2n2cnc3c(N)ncnc32)C/C1=C/C=C1\\CCC[C@]2(C)[C@@H]([C@@H](C)/C=C/[C@H](C)C(C)C)CC[C@@H]12", "tested at": "300 µM", "result": "85%"}
{"SMILES": "CCCN1c2ccccc2N(C)C(=O)c2cc(Cl)nnc21", "tested at": "330 µM", "result": "55%"}
{"SMILES": "Nc1ncnc2c1ncn2C1OC(COP(=O)(O)OC2C(O)C(COP(=O)(O)OC3CC(CO)OC3n3cnc4c(N)ncnc43)OC2n2cnc3c(N)ncnc32)CC1O", "strain or isolate": "IIIB", "tested at": "10 µM", "result": "14%"}
{"SMILES": "O=C(O)CCc1ccnc2c1NC(=O)c1cccnc1N2C1CC1", "changes": "RT-Y181C", "tested at": "8 µM", "result": "1%"}
{"SMILES": "Cc1c(C)c2c(c(C)c1OC(=O)CCC(=O)OC1CC(COP(=O)(O)OC3CC(COP(=O)(O)OC4CC(CO)OC4n4cnc5c(N)ncnc54)OC3n3cnc4c(N)ncnc43)OC1n1cnc3c(N)ncnc31)CCC(C)(CCCC(C)CCCC(C)CCCC(C)C)O2", "tested at": "300 µM", "result": "70%"}
{"SMILES": "CCN1c2ncccc2C(=O)Nc2c(COc3ccccc3)cc(OC)nc21", "changes": "RT-Y181C", "tested at": "17 µM", "result": "1%"}
{"SMILES": "CCCCCCCCCCCCCCCC(=O)OCC(COC(=O)CCC(=O)OCC1CC(OP(=O)(O)OCC2CC(OP(=O)(O)OCC3CC(O)C(n4cnc5c(N)ncnc54)O3)C(n3cnc4c(N)ncnc43)O2)C(n2cnc3c(N)ncnc32)O1)OC(=O)CCCCCCCCCCCCCCC", "tested at": "300 µM", "result": "88%"}
{"SMILES": "S=C(NCCc1ccccn1)Nc1ncccn1", "tested at": "3.3 µM", "result": "6%"}
{"SMILES": "CCCN1c2ccccc2N(CC)C(=O)c2ccnnc21", "tested at": "33 µM", "result": "20%"}
{"SMILES": "Nc1ncnc2c1ncn2[C@@H]1O[C@H](COP(=O)([O-])O[C@@H]2C[C@@H](COP(=O)([O-])O[C@@H]3C[C@@H](COP(=O)([O-])O)O[C@H]3n3cnc4c(N)ncnc43)O[C@H]2n2cnc3c(N)ncnc32)[C@@H](O)[C@H]1O", "strain or isolate": "IIIB", "tested at": "10 µM", "result": "18%"}
{"SMILES": "CCN1C(=O)c2ccnnc2N(CC)c2ccc(C)cc21", "tested at": "330 µM", "result": "85%"}
{"SMILES": "C=C1CC[C@@H](OC(=O)CCC(=O)OCC2CC(OP(=O)(O)OCC3CC(OP(=O)(O)OCC4CC(O)C(n5cnc6c(N)ncnc65)O4)C(n4cnc5c(N)ncnc54)O3)C(n3cnc4c(N)ncnc43)O2)C/C1=C/C=C1\\CCC[C@]2(C)[C@@H]([C@@H](C)/C=C/[C@H](C)C(C)C)CC[C@@H]12", "tested at": "300 µM", "result": "14%"}
{"SMILES": "CN1C(=O)c2cc(-n3ccnc3)nnc2N(C2CC2)c2ccccc21", "tested at": "33 µM", "result": "0%"}
{"SMILES": "CCN1c2ncccc2C(=O)Nc2c(COc3ccccc3)cc(-c3cccc(OC)c3)nc21", "changes": "RT-Y181C", "tested at": "37 µM", "result": "1%"}
{"SMILES": "Nc1ncnc2c1ncn2[C@@H]1O[C@H](COP(=O)([O-])O)[C@@H](O)[C@H]1OP(=O)([O-])OC[C@@H]1C[C@@H](OP(=O)([O-])OC[C@@H]2C[C@@H](O)[C@H](n3cnc4c(N)ncnc43)O2)[C@H](n2cnc3c(N)ncnc32)O1", "strain or isolate": "IIIB", "tested at": "10 µM", "result": "17%"}
{"SMILES": "CCN1C(=O)c2ccnnc2N(CC)c2ccccc21", "tested at": "33 µM", "result": "52%"}
{"SMILES": "Nc1ncnc2c1ncn2C1OC(COP(=O)(O)OC2CC(COP(=O)(O)OC3C(O)C(CO)OC3n3cnc4c(N)ncnc43)OC2n2cnc3c(N)ncnc32)CC1O", "strain or isolate": "IIIB", "tested at": "10 µM", "result": "13%"}
{"SMILES": "S=C(NCCc1ccccn1)Nc1cnccn1", "tested at": "3.3 µM", "result": "11%"}

For reference, 3 entries again:

| SMILES | changes | strain or isolate | tested at | result |
|---|---|---|---|---|
| Nc1ncnc2c1ncn2[C@@H]1O[C@H](COP(=O)([O-])O)[C@@H](O)[C@H]1OP(=O)([O-])OC[C@@H]1C[C@@H](OP(=O)([O-])OC[C@@H]2C[C@@H](O)[C@H](n3cnc4c(N)ncnc43)O2)[C@H](n2cnc3c(N)ncnc32)O1 |  | IIIB | 10 µM | 17% |
| Nc1ncnc2c1ncn2[C@@H]1O[C@H](COP(=O)(O)O[C@@H]2[C@H](O)[C@@H](COP(=O)(O)O[C@@H]3[C@H](O)[C@@H](CO)O[C@H]3n3cnc4c(N)ncnc43)O[C@H]2n2cnc3c(N)ncnc32)[C@@H](O)[C@H]1O |  | IIIB | 10 µM | 12% |
| Nc1ncnc2c1ncn2C1OC(CO)CC1OP(=O)(O)OCC1CC(OP(=O)(O)OCC2OC(n3cnc4c(N)ncnc43)C(O)C2O)C(n2cnc3c(N)ncnc32)O1 |  | IIIB | 10 µM | 8% |

Percent inhibition refers to the dose given; in toxicity tests it is the harm to the cells. Rows are shuffled and stem from different studies.